# Sequence variants of PSTVd loop 6 after infection

The pool varies loop 6 of the PSTVd intermediate strain in the pattern UNNNCGNNNG; wild type is UGACCGCGAG (upper and lower strand joined, each 5' to 3', the first 5 letters being the upper strand, closing pairs included).

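Three N. benthamiana plants were inoculated with the whole mutant pool. Progeny were sequenced from the inoculated region (day 5), the margin of the inoculated leaf (day 10) and systemic leaves (day 12).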

Numbers give reads per thousand; 0 = not seen among the reads, higher = more abundant. Each site shows the three plants. "Pool" is the share in the plasmid pool used as inoculum, on the same scale. The inoculated region was read from the minus strand, the other sites from the plus strand. Sequences that differ at fixed positions probably stem from PCR or sequencing errors, and defective variants can be carried along by functional ones. With 36,220-57,551 reads a sample, very low values are single reads. Wild type was 20.7 per thousand in the pool and the most common sequence in every sample (inoculated region 195, 198, 203; leaf margin 629, 591, 734; systemic leaves 942, 870, 868).

| sequence | pool | inoculated region | leaf margin | systemic leaves |
|---|---|---|---|---|
| UAGCCGCAAG | 0.157 | 0.747 0.665 0.609 | 0.331 0.101 0.0928 | 0 0 0 |
| UAGCCGCACG | 0.209 | 0.156 0.0359 0.111 | 0 0.0504 0.0232 | 0 0 0 |
| UAGCCGCAGG | 0.131 | 0.174 0.108 0.111 | 0.0828 0 0.0232 | 0 0 0 |
| UAGCCGCAUG | 0.105 | 0.104 0.0539 0.111 | 0.0552 0.0252 0 | 0 0 0 |
| UAGCCGCCAG | 0.222 | 0.174 0.108 0.148 | 0.0828 0.0504 0 | 0 0 0.0205 |
| UAGCCGCCCG | 0.405 | 0.122 0.0898 0.0738 | 0.0552 0.0252 0 | 0 0.0202 0.0205 |
| UAGCCGCCGG | 0.183 | 0.104 0.0719 0.0553 | 0.0552 0.0757 0 | 0 0 0 |
| UAGCCGCCUG | 0.366 | 0.556 0.126 0.0922 | 0.166 1.92 0.186 | 0 0 0 |
| UAGCCGCGAG | 0.366 | 0.261 0.377 0.129 | 10.4 33.2 0.325 | 0.0180 0.0404 0.185 |
| UAGCCGCGCG | 0.209 | 0.782 0.754 0.572 | 0.138 0.0504 0.0232 | 0.0180 0.0202 0 |
| UAGCCGCGGG | 0.235 | 0.0695 0.198 0.0738 | 0.138 0.0252 0.0464 | 0 0 0 |
| UAGCCGCGUG | 0.235 | 0.174 0.0539 0.111 | 0 2.52 0.0232 | 0 0 0.0205 |
| UAGCCGCUAG | 0.131 | 0.0695 0.0359 0.0922 | 0 0 0.0232 | 0 0 0 |
| UAGCCGCUCG | 0.261 | 0.139 0.126 0.0553 | 0.0276 0 0 | 0 0 0 |
| UAGCCGCUGG | 0.170 | 0.139 0.0898 0.0922 | 0.0828 0 0 | 0 0 0 |
| UAGCCGCUUG | 0.601 | 0.139 0.108 0.0738 | 0 0 0 | 0 0 0 |
| UAGCCGGAAG | 0.183 | 0.226 0.0539 0.0184 | 0.0276 0 0.0464 | 0 0 0 |
| UAGCCGGACG | 0.183 | 0.156 0.108 0.0922 | 0.0552 0.252 0.0232 | 0 0 0 |
| UAGCCGGAGG | 0.222 | 0.0521 0.0898 0.0553 | 0.0552 0 0.0232 | 0 0 0 |
| UAGCCGGAUG | 0.275 | 0.0869 0.126 0.0553 | 0.773 0 0.0464 | 0 0 0 |
| UAGCCGGCAG | 0.275 | 0.139 0.0539 0.0553 | 0 0 0.0464 | 0 0 0 |
| UAGCCGGCCG | 0.261 | 0.104 0.108 0.0738 | 0 0 0 | 0 0 0 |
| UAGCCGGCGG | 0.209 | 0.122 0.0180 0.0738 | 0.0828 0.0504 0 | 0 0 0 |
| UAGCCGGCUG | 0.366 | 0.0695 0.0898 0.148 | 0 0.0252 0 | 0 0 0 |
| UAGCCGGGAG | 0.301 | 0.139 0.0898 0.0369 | 0.0552 0.0757 0 | 0 0 0 |
| UAGCCGGGCG | 0.314 | 0.0348 0.0539 0.0369 | 0.0276 0 0 | 0 0 0 |
| UAGCCGGGGG | 0.0523 | 0.0869 0.0539 0.0553 | 0.0828 0 0.0464 | 0 0 0 |
| UAGCCGGGUG | 0.144 | 0.0521 0.144 0.111 | 0.0552 0 0 | 0 0 0 |
| UAGCCGGUAG | 0.235 | 0.0348 0.0719 0.166 | 0.0552 0 0 | 0 0 0 |
| UAGCCGGUCG | 0.209 | 0.0869 0.144 0.129 | 0.138 0.0504 0.0232 | 0 0 0.0205 |
| UAGCCGGUGG | 0.248 | 0.104 0.108 0.0738 | 0.0552 2.40 0.0464 | 0 0 0 |
| UAGCCGGUUG | 0.275 | 0.0869 0.0898 0.148 | 0 0.0504 0 | 0 0 0 |
| UAGCCGUAAG | 0.288 | 0.0695 0.0719 0.0738 | 0.0276 0 0 | 0 0 0 |
| UAGCCGUACG | 0.353 | 0.122 0.0180 0.111 | 0.0276 0.0504 0.0232 | 0 0 0 |
| UAGCCGUAGG | 0.183 | 0.104 0.108 0.0369 | 0 0.101 0.0232 | 0 0 0 |
| UAGCCGUAUG | 0.209 | 0.191 0.180 0.0738 | 0.193 0.0757 0.0232 | 0 0 0 |
| UAGCCGUCAG | 0.288 | 0.0521 0.0359 0.129 | 0.0552 0.227 0.0464 | 0 0 0 |
| UAGCCGUCCG | 0.222 | 0.0869 0.126 0.0553 | 0.0552 0.0252 0.0232 | 0 0 0 |
| UAGCCGUCGG | 0.248 | 0.122 0.0898 0.0369 | 0.0276 0.126 0 | 0 0 0 |
| UAGCCGUCUG | 0.275 | 0.0869 0.0539 0.111 | 0.0276 0.0504 0 | 0 0 0 |
| UAGCCGUGAG | 0.235 | 0.834 0.557 0.443 | 0.110 0.0504 0.0464 | 0 0 0 |
| UAGCCGUGCG | 0.261 | 0.191 0.0898 0.129 | 0.110 0 0.0232 | 0 0 0 |
| UAGCCGUGGG | 0.222 | 0.0869 0.0898 0.0553 | 0 0 0 | 0 0 0 |
| UAGCCGUGUG | 0.327 | 0.174 0.108 0.221 | 0.110 0.0504 0.0464 | 0 0 0 |
| UAGCCGUUAG | 0.275 | 0.156 0.126 0.0553 | 0.110 0.0504 0 | 0 0 0 |
| UAGCCGUUCG | 0.327 | 0.295 0.0719 0.129 | 0.773 0.151 0.0928 | 0 0 0 |
| UAGCCGUUGG | 0.248 | 0.156 0.108 0.0738 | 0 0.126 0.0696 | 0 0 0 |
| UAGCCGUUUG | 0.445 | 0.0695 0.0898 0.111 | 0.110 0 0.0232 | 0 0 0 |
| UAGCCUCGAG | 0.0131 | 0.626 0.431 0.443 | 0.138 0.0504 0.0464 | 0.0180 0.0202 0.0820 |

Reference: Wu et al. 2024, doi:10.1371/journal.ppat.1012142.